{"source": "PubChem BioAssay AID652067", "about": "(The Scripps Research Institute Molecular Screening Center, 2013)", "note": "The entries are a selection whose mix differs from that of the whole data set. The source made the active and inactive calls.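 The calls were made as follows: active = activation above the mean of all tested compounds plus 3 SD (cut at about 5.5% in these data); inactive = the rest.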", "data": [{"system": "DAF-12 nuclear receptor (Haemonchus contortus)", "experiment": "hcDAF-12 driven luciferase reporter activation – cell-based, luminescence, HEK293, lit1-tk-luc reporter, primary screen (AID 652067);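 also: 100% = response to 3 µM Δ7-dafachronic acid high control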", "conditions": "HEK293 hcDAF-12 lit1-tk-luc reporter, at 6.8 µM, active compounds read high, 0% DMSO, 100% Δ7-dafachronic acid", "values": [{"smiles": "CCOC(=O)N1CCC(Nc2ccc(F)cc2)CC1", "activation": "inactive: -0.44%"}, {"smiles": "O=C(NCC1(N2CCOCC2)CCCCC1)c1cc2ccccc2o1", "activation": "inactive: 3.02%"}, {"smiles": "O=c1[nH]c2ccccc2n1C1CCN(C(c2ccccc2OC(F)(F)F)c2nnnn2C2CCCCC2)CC1", "note": "(centres undefined)", "activation": "inactive: 0.33%"}, {"smiles": "O=C(NCC1(N2CCCCC2)CCCCC1)c1ccc(Cl)nc1", "activation": "inactive: 1.08%"}, {"smiles": "Cc1cc(C)cc(N(C(=O)c2ccccc2)C2CCN(C(=O)OC(C)(C)C)CC2)c1", "activation": "inactive: -0.36%"}, {"smiles": "CCOC(=O)N1CCC(Nc2ccc(OC)cc2)CC1", "activation": "inactive: -0.9%"}, {"smiles": "CCCCn1nnnc1C(c1ccc(OC)cc1)N1CCC(n2c(=O)[nH]c3ccccc32)CC1", "note": "(centres undefined)", "activation": "inactive: 0.55%"}, {"smiles": "O=C(OC1CN2CCC1CC2)C1c2ccccc2Oc2ccccc21", "note": "(centres undefined)", "activation": "inactive: -0.77%"}, {"smiles": "O=c1[nH]c2ccccc2n1C1CCN(C(c2cc3ccccc3o2)c2nnnn2C2CCCCC2)CC1", "note": "(centres undefined)", "activation": "inactive: 2.06%"}, {"smiles": "O=C(NCC1(N2CCCCC2)CCCCC1)c1ccc(Cl)s1", "activation": "inactive: -0.04%"}, {"smiles": "N#CC1(Nc2ccccc2)CCN(Cc2ccccc2)CC1", "activation": "inactive: -0.43%"}, {"smiles": "COc1ccc(Cl)cc1C(=O)NCC1(N2CCOCC2)CCCCC1", "activation": "inactive: 0.8%"}, {"smiles": "O=C(NCC1(N2CCCCC2)CCCCC1)c1ccc(=O)[nH]c1", "activation": "inactive: 3.98%"}, {"smiles": "CCCCn1nnnc1C(c1cccs1)N1CCC(n2c(=O)[nH]c3ccccc32)CC1", "note": "(centres undefined)", "activation": "inactive: -2.69%"}, {"smiles": "CCCCn1nnnc1C(CC)N1CCC(n2c(=O)[nH]c3ccccc32)CC1", "note": "(centres undefined)", "activation": "inactive: -0.01%"}, {"smiles": "O=C(NCC1(N2CCCCC2)CCCCC1)c1cccs1", "activation": "inactive: -0.42%"}, {"smiles": "COc1ccc(C(=O)NCC2(N3CCCCC3)CCCCC2)cc1", "activation": "inactive: -1.44%"}, {"smiles": "CCC(c1nnnn1C1CCCC1)N1CCC(n2c(=O)[nH]c3ccccc32)CC1", "note": "(centres undefined)", "activation": "inactive: -2.5%"}, {"smiles": "COc1ccc(C(=O)NCC2(N3CCCCC3)CCCCC2)c(OC)c1OC", "activation": "inactive: -0.51%"}, {"smiles": "CC(C)(C)OC(=O)N1CCC(N(C(=O)c2ccccc2)c2ccc(F)cc2)CC1", "activation": "inactive: 2.26%"}, {"smiles": "CSc1ccccc1C(=O)NCC1(N2CCCCC2)CCCCC1", "activation": "inactive: -1.94%"}, {"smiles": "Cc1cccc(NC2(C#N)CCN(Cc3ccccc3)CC2)c1", "activation": "inactive: 0.67%"}, {"smiles": "O=C(NCC1(N2CCCCC2)CCCCC1)c1cncc(Br)c1", "activation": "inactive: 4.29%"}, {"smiles": "CN1CCC(Nc2cccc(F)c2)CC1", "activation": "inactive: 0.63%"}, {"smiles": "Cc1ccc(C(=O)NCC2(N(C)C)CCCCC2)o1", "activation": "inactive: 1.54%"}, {"smiles": "CCCOc1ccc(C(=O)NCC2(N(C)C)CCCCC2)cc1OC", "activation": "inactive: 0.07%"}, {"smiles": "COc1ccc(C(c2nnnn2C2CCCC2)N2CCC(n3c(=O)[nH]c4ccccc43)CC2)cc1", "note": "(centres undefined)", "activation": "inactive: -1.39%"}, {"smiles": "COC(=O)C1(Nc2ccccc2)CCN(Cc2ccccc2)CC1", "activation": "inactive: -0.41%"}, {"smiles": "COc1ccc(CN(CCCl)CCCl)cc1Cl", "activation": "inactive: -0.93%"}, {"smiles": "CN(C)c1cccc(C(=O)NCC2(N3CCCCC3)CCCCC2)c1", "activation": "inactive: -1.07%"}, {"smiles": "CC(C)c1ccc(NC2CCN(C(=O)OC(C)(C)C)CC2)cc1", "activation": "inactive: -0.11%"}, {"smiles": "CCCCn1nnnc1C(c1ccnc2ccccc12)N1CCC(n2c(=O)[nH]c3ccccc32)CC1", "note": "(centres undefined)", "activation": "inactive: -1.98%"}, {"smiles": "COc1cc(OC)c(C(=O)NCC2(N(C)C)CCCCC2)cc1OC", "activation": "inactive: -1.2%"}, {"smiles": "O=C(NCC1(N2CCOCC2)CCCCC1)c1cc(F)c(F)cc1Cl", "activation": "inactive: 0.35%"}, {"smiles": "CCC(c1nnnn1C(C)(C)C)N1CCC(n2c(=O)[nH]c3ccccc32)CC1", "note": "(centres undefined)", "activation": "inactive: -1.11%"}, {"smiles": "O=C(NCC1(N2CCCCC2)CCCCC1)c1cccc(C(F)(F)F)c1", "activation": "inactive: 0.59%"}, {"smiles": "CCCCn1nnnc1C(c1cccc2ccccc12)N1CCC(n2c(=O)[nH]c3ccccc32)CC1", "note": "(centres undefined)", "activation": "inactive: -1%"}, {"smiles": "CN1CCN(CCOC(=O)C(O)(c2ccccc2)c2ccccc2)CC1", "activation": "inactive: 2.31%"}, {"smiles": "COc1ccc(NC2CCN(C(=O)OC(C)(C)C)CC2)cc1", "activation": "inactive: -0.78%"}, {"smiles": "CC(C)c1ccc(C(=O)NCC2(N3CCOCC3)CCCCC2)cc1", "activation": "inactive: 0.11%"}, {"smiles": "COc1cc(C(=O)NCC2(N3CCCCC3)CCCCC2)ccc1OC(F)F", "activation": "inactive: 0.64%"}, {"smiles": "O=C(NCC1(N2CCOCC2)CCCCC1)c1cc(=O)[nH]c2ccccc12", "activation": "inactive: -1.79%"}, {"smiles": "CC(C)(C)n1nnnc1C(c1ccccc1OC(F)(F)F)N1CCC(n2c(=O)[nH]c3ccccc32)CC1", "note": "(centres undefined)", "activation": "inactive: -0.97%"}, {"smiles": "O=C(NCC1(N2CCCCC2)CCCCC1)c1ccc(OC(F)F)cc1", "activation": "inactive: 1.78%"}, {"smiles": "O=C(NCC1(N2CCCCC2)CCCCC1)c1cccc([N+](=O)[O-])c1", "activation": "inactive: -0.04%"}, {"smiles": "CSc1ccc(C(=O)NCC2(N3CCOCC3)CCCCC2)cc1", "activation": "inactive: -0.5%"}, {"smiles": "CCN1CCC(Nc2ccc(Cl)cc2)CC1", "activation": "inactive: -0.12%"}, {"smiles": "N#CC1(Nc2ccccc2)CCN(CCc2ccccc2)CC1", "activation": "inactive: -1.37%"}, {"smiles": "O=c1[nH]c2ccccc2n1C1CCN(C(c2ccccc2OC(F)(F)F)c2nnnn2C2CCCC2)CC1", "note": "(centres undefined)", "activation": "inactive: -1.65%"}]}]}
